Compound potency records, mixed from different reports. Data source: NIAID ChemDB in PubChem.

Common to all: whole-cell or culture tests; organism: Varicella zoster virus; cells: HFF; read-out: EC50

ECn: concentration that inhibits the pathogen or its effect by n%. Blank or dashed fields: not listed here. Neighbouring rows are from separate reports.

structure,strain or isolate,method,result
CC(C)Nc1nc2cc(Cl)c(Cl)cc2n1[C@H]1O[C@@H](CO)[C@H](O)[C@@H]1O,-,plaque count,>266 µM
COC(c1cn([C@H]2C[C@H](O)[C@@H](CO)O2)c(=O)[nH]c1=O)C(Br)I,ELLEN,plaque count,93 µM
CCCSc1nc(N)nc2c1ncn2/C=C1/C[C@@H]1CO,-,cytopathic effect,>69 µM
Nc1ccn(C[C@@H](CO)OCP(=O)(O)O)c(=O)n1,-,plaque count,1.8 µM
Cc1cn([C@@H]2O[C@H](CO)[C@H]2CO)c(=O)[nH]c1=O,ELLEN,plaque count,0.003 µg/mL
Nc1nc2c(ncn2COCCO)c(=O)[nH]1,-,plaque count,14 µM
COc1cc(OC)c(NC(=S)Nc2ccc(NC(=O)c3ccccc3F)cc2Cl)cc1Cl,ELLEN,ELISA,>10 µg/mL
Nc1nc(Cl)c2ncn(/C=C3/C[C@H]3CO)c2n1,-,plaque count,>518 µM
Nc1nc2c(ncn2/C=C2\CC2(CO)CO)c(=O)[nH]1,ELLEN,plaque count,>380 µM
O=C(Nc1ccc(NC(=S)Nc2cc3ccccc3o2)cc1)c1nccc2ccccc12,ELLEN,ELISA,0.05 µg/mL
O=c1[nH]c(=O)n([C@H]2C[C@H](O)[C@@H](CO)O2)cc1I,-,cytopathic effect,11 µM
CC(NC(=S)Nc1ccc(NC(=O)c2ccccc2F)cc1)c1ccc(F)cc1,SC44,ELISA,0.32 µg/mL
CC(N)c1cn([C@H]2C[C@H](O)[C@@H](CO)O2)c(=O)[nH]c1=O,ELLEN,cytopathic effect,>87 µM
Nc1nc(NC2CC2)c2ncn(C=C3CC3CO)c2n1,-,-,13 µM
COC(c1cn([C@H]2C[C@H](O)[C@@H](CO)O2)c(=O)[nH]c1=O)C(Cl)Br,ELLEN,plaque count,7.5 µM
Nc1nc(OCC2CC2)c2ncn(/C=C3/C[C@@H]3CO)c2n1,-,cytopathic effect,0.5 µM
CCCCCSc1nc(N)nc2c1ncn2/C=C1/C[C@@H]1CO,-,plaque count,2.5 µM
O=c1[nH]c(=O)n([C@H]2C[C@H](O)[C@@H](CO)O2)cc1C(O)C(Br)Br,ELLEN,plaque count,6.3 µM
Cn1cc(C(=O)NCc2ccc(Cl)cc2)c(=O)c2cc(CN3CCOCC3)ccc21,NE varicella isolate,plaque count,0.3 µM
COC(=O)C(C)NP(=O)(OC[C@@H]1C/C1=C\n1cc(C)c(=O)[nH]c1=O)Oc1ccccc1,-,plaque count,>300 µM
COc1nc(N)nc2c1ncn2/C=C1/C[C@H]1CO,-,-,24 µM
CC(C)[C@H](N)C(=O)OCC(COC(=O)[C@@H](N)C(C)C)OCn1cnc2c(=O)[nH]c(N)nc21,-,plaque count,11.3 µM
CCCOc1nc(N)nc2c1ncn2/C=C1/C[C@@H]1CO,-,plaque count,8 µM
COc1cc(OC)c(NC(=S)Nc2ccc(NC(=O)c3ccccc3C)nc2)cc1Cl,ELLEN,ELISA,>15 µg/mL
O=C(Nc1ccc(NC(=S)NCCc2cc3ccccc3o2)cc1)c1cc2ccccc2o1,ELLEN,ELISA,0.2 µg/mL
COc1cc(NC(=O)c2ccccc2F)ccc1NC(=S)NC1=CC(Cl)C(C)(OC)C=C1,ELLEN,ELISA,>10 µg/mL
CN1C=CCC(C(=O)O[C@H]2C[C@H](n3cc(/C=C/I)c(=O)[nH]c3=O)O[C@@H]2CO)=C1,-,cytopathic effect,0.12 µM
C=CCNc1nc(N)nc2c1ncn2/C=C1/C[C@@H]1CO,-,cytopathic effect,>367 µM
O=c1[nH]c(=O)n([C@H]2C[C@H](O)[C@@H](CO)O2)cc1C(O)C(Cl)Cl,ELLEN,plaque count,6 µM
Nc1nc2c(ncn2/C=C2/CC2(CO)CO)c(=O)[nH]1,-,cytopathic effect,>404 µM
CC(N=[N+]=[N-])c1cn([C@H]2C[C@H](O)[C@@H](CO)O2)c(=O)[nH]c1=O,ELLEN,cytopathic effect,>250 µM
CN[C@H]1C[C@@H](n2cnc3c(N)ncnc32)[C@H](O)[C@@H]1O,-,-,81.7 µg/mL
Nc1nc2c(ncn2[C@H]2C[C@]23C[C@H]3CO)c(=O)[nH]1,-,plaque count,>399 µM
Nc1nc2c(ncn2/C=C2/C[C@@H]2CO)c(=O)[nH]1,-,plaque count,55 µM
C[C@H](NC(=S)Nc1ccc(NC(=O)c2cncs2)nc1)c1cc(C(F)(F)F)cc(C(F)(F)F)c1,ELLEN,ELISA,>7.5 µg/mL
COc1nc(N)nc2c1ncn2/C=C1/C[C@@H]1CO,-,plaque count,10 µM
NC(=S)c1cn(COCCO)c2ncnc(N)c12,ELLEN,plaque count,46 µM
CC(=O)OCC(COC(C)=O)OCn1cnc2c(=O)[nH]c(N)nc21,-,plaque count,0.6 µg/mL
O=c1[nH]c(=O)n([C@H]2C[C@H](O)[C@@H](CO)O2)cc1C(O)C(Br)I,ELLEN,plaque count,6 µM
CCCCCOc1nc(N)nc2c1ncn2/C=C1/C[C@@H]1CO,-,plaque count,>66 µM
CC(=O)OCC(CO)OCn1cnc2c(=O)[nH]c(N)nc21,-,plaque count,0.6 µg/mL
CCCOc1nc(N)nc2c1ncn2/C=C1/C[C@@H]1CO,-,cytopathic effect,0.5 µM
Nc1ncnc2c1ncn2[C@H]1C[C@]12C[C@H]2CO,-,plaque count,245 µM
COC(=O)C(Cc1c[nH]c2ccccc12)NP(=O)(O)OCC1C/C1=C/n1cnc2c(N)ncnc21,-,cytopathic effect,5 µM
O=c1[nH]c(=O)n([C@H]2C[C@H](O)[C@@H](CO)O2)cc1/C=C/I,-,cytopathic effect,0.04 µM
COc1cc(OC)c(NC(=S)Nc2ccc(NC(C)=O)cc2)cc1Cl,ELLEN,-,>20 µM
Nc1ncnc2c1ncn2[C@H]1C[C@@]12C[C@@H]2CO,-,plaque count,>433 µM
COC(=O)[C@H](C)NP(=O)(OCC1C/C1=C/n1cnc2c(=O)[nH]c(N)nc21)Oc1ccccc1,-,-,8.1 µM
Nc1nc2ncn(/C=C3\C(F)C3(CO)CO)c2c(=O)[nH]1,-,cytopathic effect,>300 µM
Nc1ncnc2c1ncn2[C@H]1C[C@]12C[C@@H]2CO,-,plaque count,>86.5 µM
C#CCNc1nc(N)nc2c1ncn2/C=C1/C[C@@H]1CO,-,cytopathic effect,>74 µM
O[C@@H]1[C@H](O)[C@H](O)CO[C@H]1n1c(Br)nc2cc(Cl)c(Cl)cc21,-,plaque count,>50 µM
COC(=O)C(C)NP(=O)(OC[C@@H]1C/C1=C\n1cc(N)c(=O)[nH]c1=O)Oc1ccccc1,-,plaque count,92.4 µM
Nc1ncnc2c1ncn2[C@H]1C[C@@]12C[C@H]2CO,-,plaque count,242 µM
[N-]=[N+]=NC(CBr)c1cn(CCC(CO)CO)c(=O)[nH]c1=O,ELLEN,plaque count,16.2 µM
Nc1cn(/C=C2/C[C@H]2CO)c(=O)[nH]c1=O,-,plaque count,3.6 µM

A second listing of 5 rows from above:

structure	strain or isolate	method	result
Cc1cn([C@@H]2O[C@H](CO)[C@H]2CO)c(=O)[nH]c1=O	ELLEN	plaque count	0.003 µg/mL
Nc1nc2ncn(/C=C3\C(F)C3(CO)CO)c2c(=O)[nH]1	-	cytopathic effect	>300 µM
CN[C@H]1C[C@@H](n2cnc3c(N)ncnc32)[C@H](O)[C@@H]1O	-	-	81.7 µg/mL
COC(=O)C(Cc1c[nH]c2ccccc12)NP(=O)(O)OCC1C/C1=C/n1cnc2c(N)ncnc21	-	cytopathic effect	5 µM
Nc1nc(Cl)c2ncn(/C=C3/C[C@H]3CO)c2n1	-	plaque count	>518 µM